Laboratory results published in patent publication US20130137706A1, “Antimicrobial Molecules For Treating Multi-Drug Resistant and Extensively Drug Resistant Strains Of Mycobacterium” (POLYMEDIX, INC., priority 2008, published 2013).

Tested on: M. tuberculosis (H37Rv strain)
Test: Microplate Alamar Blue Assay (MABA) susceptibility assay in BACTEC 12B medium
Assay type: cell-based, Mycobacterium tuberculosis
Settings: for SI (EC50/IC90): EC50 VERO cells divided by IC90 M. tuberculosis H37Rv

Structure (SMILES)	SI (EC50/IC90)	SI value (summary of Table 1, EC50/IC90)
CC(C)(C)c1cc(N)c(SCCNC(=N)N)c(NC(=O)c2cc(OCCNC(=N)N)cc(C(=O)Nc3cc(C(C)(C)C)cc(N)c3SCCNC(=N)N)c2)c1 [Compound 1]	>136.4	
CC(C)(C)c1cc(NC(=O)CCCCNC(=N)N)c(SCCN)c(NC(=O)Nc2cc(C(C)(C)C)cc(NC(=O)CCCCNC(=N)N)c2SCCN)c1 [Compound 4]	>16.3	greater than 15
CC(C)(C)c1cc(N)c(SCCNC(=N)N)c(NC(=O)c2cc(C(=O)Nc3cc(C(C)(C)C)cc(N)c3SCCNC(=N)N)c(OCCNC(=N)N)cc2OCCNC(=N)N)c1 [Compound 2]	>66.7	
N=C(N)NCCCCC(=O)Nc1cccc(NC(=O)c2cc(C(=O)Nc3cccc(NC(=O)CCCCNC(=N)N)c3SCCN)ncn2)c1SCCN [Compound 3]	>27.8	
